Pooled drug test results. Numbers come from NIAID ChemDB, via PubChem.

All rows: cytotoxicity tests; cell line: MT-4; read by: MTT; endpoint: CC50

CCn is the concentration with n% toxicity to the cells. Conditions beyond the fields shown may differ between rows.

compound,result
CCCCNC(=S)N/N=C(\C)c1nc2ccc(Cl)cc2[nH]1,1.03 µg/mL
Cc1c(Cc2c(Cl)cccc2Cl)nc(SCc2ccc(Cl)cc2)[nH]c1=O,>59 µM
Cc1cn([C@H]2C[C@H](N=[N+]=[N-])[C@@H](CO)O2)c(=O)[nH]c1=O,>93.55 µM
Cc1c(C(C)(C)C)s/c(=N\S(=O)(=O)c2cc(Cl)ccc2NS(C)(=O)=O)n1C,>25 µM
CCN1C/C(=C\c2ccc(O)c(O)c2)C(=O)/C(=C/c2ccc(O)c(O)c2)C1,5 µM
Cc1cc(C#N)cc(C)c1Oc1ccnc(NC2CCN(CC(=O)Nc3ccc(Cl)cc3)CC2)n1,0.998 µM
CC1CCCCN1CCCNCc1ccc(CN2CCCNCCNCCCNCC2)cc1,>25 µg/mL
Cc1cc(C)cc(Cc2c(C(C)C)nc(SCC(N)=O)n2COCc2ccccc2)c1,29.43 µM
Cc1c(C(C)(C)C)s/c(=N\S(=O)(=O)c2ccc(O)cc2)n1C,>25 µM
CC(=O)c1ccc(NC(=O)CSc2nc3ncccc3n2-c2ccc(C3CC3)c3ccccc23)c(Br)c1,2.89 µM
N#Cc1cc([C@H]2C[C@H](N=[N+]=[N-])[C@@H](CO)O2)cc(=O)[nH]1,>478 µM
Cc1c(Cc2c(Cl)cccc2Cl)nc(SCc2ccc(F)cc2)[nH]c1=O,>61 µM
O=c1[nH]c(=S)[nH]c2nccnc12,60.4 µg/mL
CCn1c(Cc2ccccc2)c(C(C)C)[nH]c1=S,40.72 µM
Nc1ccn([C@H]2CC[C@@H](CO)O2)c(=O)n1,>20 µg/mL
COC(=O)c1ccc(NC(=O)CSc2nc3ncccc3n2-c2ccc(C3CC3)c3ccccc23)c([N+](=O)[O-])c1,2.46 µM
Cc1cc(C#N)cc(C)c1Oc1ccnc(NC2CCN(CC(=O)Nc3cccc(Cl)c3)CC2)n1,1.263 µM
Cc1cc(C#N)cc(C)c1Nc1ccnc(Nc2ccc(C#N)cc2)n1,5 µM
O=C1/C(=C/c2ccc(O)c([N+](=O)[O-])c2)CN(Cc2ccccc2)C/C1=C\c1ccc(O)c([N+](=O)[O-])c1,19 µM
O=c1[nH]cnc2c1ncn2[C@H]1CC[C@@H](CO)O1,>20 µg/mL
CCc1nc(SCC(N)=O)n(COCc2ccccc2)c1Cc1cc(C)cc(C)c1,37.56 µM
COC(=O)[C@H](C)NP(=O)(OC[C@H]1O[C@@H](n2cc(C)c(=O)[nH]c2=O)CC1N=[N+]=[N-])Oc1ccccc1,107.6 µM
COc1cccc(S(=O)(=O)/N=c2\sc(C(C)(C)C)c(C)n2C)c1,>25 µM
CCOCn1c(SC)nc(CC)c1Cc1ccccc1,34 µM
O=c1[nH]c(=S)[nH]c2nc(-c3ccccc3)c(-c3ccccc3)nc12,1.77 µg/mL
c1cc(CN2CCCNCCNCCCNCC2)ccc1CN1CCCNCCNCCCNCC1,>5 µg/mL
Cc1cn([C@H]2C[C@H](N=[N+]=[N-])[C@@H](CO)O2)c(=O)[nH]c1=O,>7.48 µg/mL
Cc1cc(C)cc(CC(N)C(=O)C(C)C)c1,>100 µM
Cc1cn([C@H]2C[C@H](N=[N+]=[N-])[C@@H](CO)O2)c(=O)[nH]c1=O,>1 µg/mL
CCCc1c(Sc2cccc3ccccc23)n(COCC)c(=O)[nH]c1=O,37.11 µM
CC(C)Nc1cccnc1N1CCN(C(=O)c2cc3cc(NS(C)(=O)=O)ccc3[nH]2)CC1,>20 µM
COc1cccc(-c2nc3[nH]c(=S)[nH]c(=O)c3nc2-c2cccc(OC)c2)c1,63.9 µg/mL
Cc1ccc(NC(=O)CN2CCC(Nc3nccc(Oc4c(C)cc(C#N)cc4C)n3)CC2)cc1,2.019 µM
O=C1/C(=C/c2cc(O)c(O)c(O)c2)CN(Cc2ccccc2)C/C1=C\c1cc(O)c(O)c(O)c1,117 µM
O=C(/C=C/c1ccc(O)c(O)c1/C=C/c1ccc(O)c(O)c1)O[C@H](Cc1ccc(O)c(O)c1)C(=O)O,7.61 µg/mL
CCc1c(Sc2ccc3ccccc3c2[N+](=O)[O-])n(COCc2ccccc2)c(=O)[nH]c1=O,34.19 µM
CCOC(=O)c1ccc(NC(=O)CSc2nc3ncccc3n2-c2ccc(C3CC3)c3ccccc23)c(Br)c1,3.19 µM
Cc1cn([C@H]2C[C@H](N=[N+]=[N-])[C@@H](COP(=O)(Oc3ccccc3)C(O)c3ccccc3)O2)c(=O)[nH]c1=O,49 µM
Cc1c(C(C)C)s/c(=N\S(=O)(=O)c2cc(Cl)ccc2C#N)n1C,>25 µM
COc1ccc(C(O)P(=O)(OC[C@H]2O[C@@H](n3ccc(=O)[nH]c3=O)C[C@@H]2N=[N+]=[N-])Oc2ccccc2)cc1,>100 µM
CCOCn1c(Sc2cccc3ccccc23)c(CC)c(=O)[nH]c1=O,38.4 µM
Cc1cc(C#N)cc(C)c1Oc1ccnc(NC2CCN(CC(=O)Nc3ccccc3[N+](=O)[O-])CC2)n1,59.3 µM
CC(Sc1nc2ncccc2n1-c1ccc(C2CC2)c2ccccc12)C(=O)Nc1ccc(S(N)(=O)=O)cc1Br,3.07 µM
CCOC(=O)[C@@H](Cc1ccc(O)c(O)c1)OC(=O)/C=C/c1ccc(O)c(O)c1/C=C/c1ccc(O)c(O)c1,7.38 µg/mL
Cc1ccnc2c1NC(=O)c1cccnc1N2C1CC1,20 µM
CC(C)Cc1c(Sc2cccc3ccccc23)n(COCc2ccccc2)c(=O)[nH]c1=O,32.51 µM
Cc1c(C(C)(C)C)s/c(=N\S(=O)(=O)c2cccc([N+](=O)[O-])c2)n1C,>25 µM
Cc1c(Cc2c(F)cccc2F)nc(SCc2ccc([N+](=O)[O-])cc2)[nH]c1=O,>62 µM
Cc1cn([C@H]2C[C@H](N=[N+]=[N-])[C@@H](COP(=O)(OCc3ccc([N+](=O)[O-])cc3)Oc3ccccc3)O2)c(=O)[nH]c1=O,27 µM
Cc1cc(/C=C/CC#N)cc(C)c1Nc1ccnc(Nc2ccc(C#N)cc2)n1,10 µM
Cc1cc(C#N)cc(C)c1Oc1ccnc(NC2CCN(CC(=O)Nc3ccc(F)cc3)CC2)n1,1.812 µM
CCOCn1c(SCC(N)=O)nc(C(C)C)c1Cc1cc(C)cc(C)c1,>100 µM
Cc1cn([C@H]2C[C@H](N=[N+]=[N-])[C@@H](CO)O2)c(=O)[nH]c1=O,>2 µg/mL
Cc1cc(C)cc(Cc2c(C(C)C)nc(SCC(N)=O)n2Cc2ccncc2)c1,64.04 µM
Cc1cn([C@H]2C[C@H](N=[N+]=[N-])[C@@H](CO)O2)c(=O)[nH]c1=O,>0.64 µg/mL
Cc1cn([C@H]2C[C@H](N=[N+]=[N-])[C@@H](COP(=O)(Oc3ccccc3)C(O)c3ccc(Cl)cc3)O2)c(=O)[nH]c1=O,50 µM
COc1ccc(NC(=O)CN2CCC(Nc3nccc(Oc4c(C)cc(C#N)cc4C)n3)CC2)cc1,1.562 µM
C/C(=C\C#N)c1cc(C)c(Nc2ccnc(Nc3ccc(C#N)cc3)n2)c(C)c1,30 µM
OC1/C(=C/c2ccc(Cl)c(Cl)c2)COC/C1=C\c1ccc(Cl)c(Cl)c1,165 µM
COc1ccc(C(O)P(=O)(OC[C@H]2O[C@@H](n3cc(C)c(=O)[nH]c3=O)C[C@@H]2N=[N+]=[N-])Oc2ccccc2)cc1,49 µM
Cc1c(Cc2c(Cl)cccc2Cl)nc(SCc2ccc3c(c2)C(=O)c2ccccc2C3=O)[nH]c1=O,>48 µM

Again, the opening 7 rows:

compound	result
CCCCNC(=S)N/N=C(\C)c1nc2ccc(Cl)cc2[nH]1	1.03 µg/mL
Cc1c(Cc2c(Cl)cccc2Cl)nc(SCc2ccc(Cl)cc2)[nH]c1=O	>59 µM
Cc1cn([C@H]2C[C@H](N=[N+]=[N-])[C@@H](CO)O2)c(=O)[nH]c1=O	>93.55 µM
Cc1c(C(C)(C)C)s/c(=N\S(=O)(=O)c2cc(Cl)ccc2NS(C)(=O)=O)n1C	>25 µM
CCN1C/C(=C\c2ccc(O)c(O)c2)C(=O)/C(=C/c2ccc(O)c(O)c2)C1	5 µM
Cc1cc(C#N)cc(C)c1Oc1ccnc(NC2CCN(CC(=O)Nc3ccc(Cl)cc3)CC2)n1	0.998 µM
CC1CCCCN1CCCNCc1ccc(CN2CCCNCCNCCCNCC2)cc1	>25 µg/mL